Pooled drug test results. Numbers come from NIAID ChemDB, via PubChem.

Shared fields: toxicity to cultured cells; cell line: MT-4; read-out: CC50

Blank or dashed fields: not listed here. Rows are shuffled and stem from different studies. CCn: concentration that lowers growth or viability of the cells by n%.

structure,method,result
O=C(O)CSc1ccc2c(c1)c(=O)c1ccccc1n2C1CC1,,>400 µg/mL
CC1CCCCN1CCCNCCc1ccc(CCNCCCN2CCCCC2C)cc1,,52 µg/mL
O=c1cc(-c2ccc(O)cc2)oc2cc(O)cc(O)c12,,>500 µg/mL
Cc1cn([C@H]2C=C[C@@H](CO)O2)c(=O)[nH]c1=O,,1.2 µM
CCN1C(=O)N(Cc2ccccc2Cl)S(=O)(=O)c2cscc21,,540 µM
COCOc1ccc(/C=C/C(=O)c2c(OCOC)cc(OCOC)c(CC=C(C)C)c2O)cc1OCOC,,>100 µg/mL
Cc1cn([C@H]2C[C@H](N=[N+]=[N-])[C@@H](COP(=O)(OCc3ccc([N+](=O)[O-])cc3)Oc3ccccc3)O2)c(=O)[nH]c1=O,MTT,27 µM
CC(C)c1c(CO)cn(Cc2ccc([N+](=O)[O-])cc2)c1Sc1cc(Cl)cc(Cl)c1,MTT,45 µM
CC(C)=CCc1c(O)ccc([C@@H]2COc3c(ccc4c3C=CC(C)(C)O4)C2)c1O,,>100 µg/mL
N#CCN1C(=O)N(Cc2cccc(F)c2)S(=O)(=O)c2cscc21,,129 µM
Nc1ccn([C@H]2C=C[C@@H](CO)O2)c(=O)n1,,7.9 µM
Cc1c(Sc2ccccc2)n(COCCO)c(=O)[nH]c1=O,,740 µM
CCOC(=O)c1cn(Cc2ccncc2)c(Sc2cccc(F)c2)c1C(C)C,MTT,40 µM
Nc1ncnc2c1ncn2CCOCP(=O)(O)O,MTT,>10 µM
O=C(O)c1cn2c3c(c(N4CCN(c5ccccn5)CC4)c(F)cc3c1=O)OCC2CF,,>25 µg/mL
NC(=O)c1nn(COCCO)cc1I,,>300 µM
O=C1CN=C(c2ccc[nH]2)c2cc(Cl)ccc2N1,,3.5 µM
Cc1cn([C@H]2C[C@H](N=[N+]=[N-])[C@@H](CO)O2)c(=O)[nH]c1=O,MTT,68.5 µM
CS(=O)(=O)c1ccc(CN2CCC(N=C3C=C(Cc4ccc(Cl)cc4Cl)NS(=O)(=O)N3)CC2)cc1,MTT,224 µM
COc1ccc(C(O)P(=O)(OC[C@H]2O[C@@H](n3cc(C)c(=O)[nH]c3=O)C[C@@H]2N=[N+]=[N-])Oc2ccccc2)cc1,MTT,49 µM
Cc1cc(C)cc(Sc2c(C(C)C)c(CO)cn2Cc2ccncc2)c1,MTT,≥200 µM
O=c1[nH]c2cc(NS(=O)(=O)c3ccc(F)cc3)ccc2c(=O)n1O,MTT,355.8 µM
CC(C)=CCc1c(O)ccc(C2COc3cc(O)c(CC=C(C)C)c(O)c3C2=O)c1O,,46 µg/mL
C=C[C@@]1(CO)CO[C@@H](n2cc(C)c(=O)[nH]c2=O)C1,,>100 µg/mL
CC(C)c1c(CO)cn(Cc2ccc(N)cc2)c1Sc1cc(Cl)cc(Cl)c1,MTT,>200 µM
COc1ccc(OP(=O)(OC[C@H]2O[C@@H](n3cc(C)c(=O)[nH]c3=O)C[C@@H]2N=[N+]=[N-])C(O)c2cccnc2)cc1,MTT,27 µM
Nc1ccn([C@H]2CC[C@@H](CO)O2)c(=O)n1,,475 µg/mL
Nc1ncnc2c1ncn2[C@@H]1OC[C@H](CCP(=O)(O)O)[C@H]1F,MTT,80 µM
O=[N+]([O-])c1ccc(CN2CCC(N=C3C=C(Cc4cccc5ccccc45)NS(=O)(=O)N3)CC2)cc1,MTT,104 µM
COc1ccc(C(O)P(=O)(OC[C@H]2O[C@@H](n3ccc(=O)[nH]c3=O)C[C@@H]2N=[N+]=[N-])Oc2ccccc2)cc1,MTT,>100 µM
NC(=O)c1nn([C@H]2C[C@H](O)[C@@H](CO)O2)cc1I,,>300 µM
CC(=O)c1ccc(CN2CCC(N=C3C=C(Cc4cccc5ccccc45)NS(=O)(=O)N3)CC2)cc1,MTT,106 µM
Nc1ccn([C@H]2CC[C@@H](CO)O2)c(=O)n1,,3.5 µM
Cc1cccc(C)c1OP(=O)(OC[C@H]1O[C@@H](n2cc(C)c(=O)[nH]c2=O)C[C@@H]1N=[N+]=[N-])C(O)c1cccnc1,MTT,49 µM
N#Cc1ccc(CN2CCC(N=C3C=C(Cc4ccc(Cl)cc4Cl)NS(=O)(=O)N3)CC2)cc1,MTT,101 µM
O=C1N(Cc2ccccc2)c2cscc2S(=O)(=O)N1Cc1ccccc1,,510 µM
Cc1cc(C#N)cc(C)c1Oc1nc(Nc2ccc(C#N)cc2)nc(N)c1Br,MTT,>4.59 µM
c1cc(CN2CCCNCCNCCCNCC2)ccc1CN1CCCNCCNCCCNCC1,,>500 µg/mL
CC(C)Nc1cccnc1N1CCN(C(=O)c2cc3cc(NS(C)(=O)=O)ccc3[nH]2)CC1,MTT,>43.81 µM
COC(=O)c1nn(COCCO)cc1I,,>300 µM